PubChem BioAssay AID1259414, Drosophila RNAi Screening Center – 2018
In all, the deposit lists about 24,000 reagents; this is a random part of those with a known target gene and a result. Of all reagents, about 1,210 (5%) are marked active. 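Inactive calls also include excluded dsRNAs with several or no targets, genes unexpressed in JW18, and well A1, regardless of score.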 The numbers tell different reagents against one gene apart. Names joined by + are all predicted targets of the reagent.

- Screen: 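Fly genes that alter Wolbachia amount inside host cells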 (primary screen)
- System: Drosophila JW18 cells infected with Wolbachia
- Reagent: long dsRNA against Drosophila genes, 0.25 µg dsRNA per well of a 384-well plate
- Timing: 5 days
- Challenge: cells persistently infected with Wolbachia before knock-down; no added drug
- Measurement: 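Imaged fluorescence in situ signal for Wolbachia 23S rRNA per DAPI-counted host cell, given as a robust z-score within each plate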
- Reading the numbers: Wolbachia per cell robust z: higher = more Wolbachia per host cell than the plate typical
- Active means: 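Active if absolute robust z reaches 1.5 in two or more of three replicates, leaving out multi- or no-target dsRNAs, genes unexpressed in JW18 and A1 wells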

CG14151 | Wolbachia per cell robust z, rep 1 = -0.788; Wolbachia per cell robust z, rep 2 = 0.604; Wolbachia per cell robust z, rep 3 = 0.933; call = inactive
mRpL44 #1 | Wolbachia per cell robust z, rep 1 = -0.234; Wolbachia per cell robust z, rep 2 = -3.06; Wolbachia per cell robust z, rep 3 = -1.19; call = inactive
mRpL44 #2 | Wolbachia per cell robust z, rep 1 = 0.00664; Wolbachia per cell robust z, rep 2 = 0.533; Wolbachia per cell robust z, rep 3 = -1.64; call = inactive
Elo68beta | Wolbachia per cell robust z, rep 1 = 1.16; Wolbachia per cell robust z, rep 2 = 1.14; Wolbachia per cell robust z, rep 3 = 0.396; call = inactive
CR32496 + CG6788 | Wolbachia per cell robust z, rep 1 = 0.237; Wolbachia per cell robust z, rep 2 = -1.68; Wolbachia per cell robust z, rep 3 = 0.299; call = inactive
GstE2 #1 | Wolbachia per cell robust z, rep 1 = -0.659; Wolbachia per cell robust z, rep 2 = -0.655; Wolbachia per cell robust z, rep 3 = -1.41; call = inactive
GstE2 #2 | Wolbachia per cell robust z, rep 1 = 1.46; Wolbachia per cell robust z, rep 2 = -0.455; Wolbachia per cell robust z, rep 3 = 0.546; call = inactive
CG12133 #1 | Wolbachia per cell robust z, rep 1 = -2.22; Wolbachia per cell robust z, rep 2 = 0.427; Wolbachia per cell robust z, rep 3 = -0.469; call = inactive
CG12133 #2 | Wolbachia per cell robust z, rep 1 = -0.486; Wolbachia per cell robust z, rep 2 = 0.561; Wolbachia per cell robust z, rep 3 = -1.62; call = inactive
trio #1 | Wolbachia per cell robust z, rep 1 = 0.12; Wolbachia per cell robust z, rep 2 = 1; Wolbachia per cell robust z, rep 3 = 1.14; call = inactive
trio #2 | Wolbachia per cell robust z, rep 1 = 0.789; Wolbachia per cell robust z, rep 2 = 1.24; Wolbachia per cell robust z, rep 3 = 1.32; call = inactive
trio #3 | Wolbachia per cell robust z, rep 1 = 1.63; Wolbachia per cell robust z, rep 2 = 0.544; Wolbachia per cell robust z, rep 3 = -1.01; call = inactive
trio #4 | Wolbachia per cell robust z, rep 1 = 0.136; Wolbachia per cell robust z, rep 2 = -0.211; Wolbachia per cell robust z, rep 3 = 0.401; call = inactive
dgt1 | Wolbachia per cell robust z, rep 1 = 0.141; Wolbachia per cell robust z, rep 2 = -0.111; Wolbachia per cell robust z, rep 3 = 0.482; call = inactive
AdamTS-B #1 | Wolbachia per cell robust z, rep 1 = 0.919; Wolbachia per cell robust z, rep 2 = -0.072; Wolbachia per cell robust z, rep 3 = 1.34; call = inactive
AdamTS-B #2 | Wolbachia per cell robust z, rep 1 = 1.19; Wolbachia per cell robust z, rep 2 = 0.262; Wolbachia per cell robust z, rep 3 = 0.00259; call = inactive
CG17272 | Wolbachia per cell robust z, rep 1 = 0.321; Wolbachia per cell robust z, rep 2 = -1.88; Wolbachia per cell robust z, rep 3 = -0.187; call = inactive
CG7025 | Wolbachia per cell robust z, rep 1 = -0.0141; Wolbachia per cell robust z, rep 2 = 0.163; Wolbachia per cell robust z, rep 3 = -1.92; call = inactive
CG6287 #1 | Wolbachia per cell robust z, rep 1 = 0.122; Wolbachia per cell robust z, rep 2 = -1.1; Wolbachia per cell robust z, rep 3 = -1.48; call = inactive
CG6287 #2 | Wolbachia per cell robust z, rep 1 = -1.29; Wolbachia per cell robust z, rep 2 = -0.392; Wolbachia per cell robust z, rep 3 = -1.04; call = inactive
CG14253 | Wolbachia per cell robust z, rep 1 = -4.59; Wolbachia per cell robust z, rep 2 = -3.6; Wolbachia per cell robust z, rep 3 = 0.806; call = active
Cpr65Av #1 | Wolbachia per cell robust z, rep 1 = -0.764; Wolbachia per cell robust z, rep 2 = -4.23; Wolbachia per cell robust z, rep 3 = -0.53; call = inactive
Cpr65Av #2 | Wolbachia per cell robust z, rep 1 = 0.743; Wolbachia per cell robust z, rep 2 = -0.0027; Wolbachia per cell robust z, rep 3 = -0.408; call = inactive
CG10492 | Wolbachia per cell robust z, rep 1 = 0.933; Wolbachia per cell robust z, rep 2 = 2.05; Wolbachia per cell robust z, rep 3 = -7.63; call = inactive

2 entries from above, reformatted.
{"gene knocked down":"mRpL44","reagent":2,"Wolbachia per cell robust z, rep 1":0.00664,"Wolbachia per cell robust z, rep 2":0.533,"Wolbachia per cell robust z, rep 3":-1.64,"call":"inactive"}
{"gene knocked down":"Elo68beta","reagent":1,"Wolbachia per cell robust z, rep 1":1.16,"Wolbachia per cell robust z, rep 2":1.14,"Wolbachia per cell robust z, rep 3":0.396,"call":"inactive"}
